43 compounds from ChEMBL document CHEMBL2029297, “Reexamining hydroxamate inhibitors of botulinum neurotoxin serotype A: extending towards the β-exosite” (2012) can be followed below.

Protein sequences, listed by entry. Tags and fused reporters are not part of them. Residues count along the entry.
UniProt P0DPI0, 2-448 limits assumed: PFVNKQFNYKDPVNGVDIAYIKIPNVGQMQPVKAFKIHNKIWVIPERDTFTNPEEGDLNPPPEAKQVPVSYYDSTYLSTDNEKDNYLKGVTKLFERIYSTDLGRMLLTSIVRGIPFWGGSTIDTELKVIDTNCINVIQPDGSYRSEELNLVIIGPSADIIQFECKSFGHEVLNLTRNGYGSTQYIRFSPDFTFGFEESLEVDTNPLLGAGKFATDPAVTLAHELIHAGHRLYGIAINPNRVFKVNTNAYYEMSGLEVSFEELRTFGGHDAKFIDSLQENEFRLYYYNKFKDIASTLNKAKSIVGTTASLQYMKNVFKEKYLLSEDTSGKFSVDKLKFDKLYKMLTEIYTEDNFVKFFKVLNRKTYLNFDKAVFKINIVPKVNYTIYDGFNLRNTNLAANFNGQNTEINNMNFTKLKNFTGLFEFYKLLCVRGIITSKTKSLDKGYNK

In this assay the target is Botulinum neurotoxin type A (Clostridium botulinum, UniProt P0DPI0). Briefly: Inhibition of clostridium botulinum Botulinum neurotoxin type A using SNAPide as substrate by FRET analysis.
What is called IC50 is the midpoint of a concentration-inhibition curve. Turning to `O=C(/C=C/c1ccc(-c2cc[nH]n2)cc1Cl)NO`, half-maximal inhibition (IC50) required 9.11 µM.
Under `O=C(/C=C/c1ccc(-c2cncc(Cl)c2)cc1Cl)NO` stands 27.3 µM; under `O=C(/C=C/c1ccc(N2CCCCC2)cc1Cl)NO`, 1.13 µM.
Under `O=C(/C=C/c1ccc(-c2cccc(F)c2)cc1Cl)NO` stands 31.3 µM; under `Cc1ccc(-c2ccc(/C=C/C(=O)NO)c(Cl)c2)cc1`, 60.7 µM.
The value for `Cn1nccc1-c1ccc(/C=C/C(=O)NO)c(Cl)c1` was 1.32 µM.
`Cc1cccc(-c2ccc(/C=C/C(=O)NO)c(Cl)c2)c1`: the concentration for half-maximal inhibition (IC50) was above 100 µM.
The value for `O=C(/C=C/c1ccc(Br)cc1Cl)NO` was 0.69 µM; that for `CN1CCN(c2ccc(-c3ccc(/C=C/C(=O)NO)c(Cl)c3)cn2)CC1` was 21.3 µM; that for `O=C(/C=C/c1ccc(-c2cn[nH]c2)cc1Cl)NO` was 66.2 µM.
The value for `Cn1cc(-c2ccc(/C=C/C(=O)NO)c(Cl)c2)cn1` was 24.9 µM; that for `O=C(/C=C/c1ccc(-c2ccc(S(=O)(=O)N3CCOCC3)cc2)cc1Cl)NO` was above 100 µM.
The value for `O=C(/C=C/c1ccc(-c2cccc(C(F)(F)F)c2)cc1Cl)NO` was 38.2 µM; that for `O=C(/C=C/c1ccc(-c2cnc3ccccc3c2)cc1Cl)NO` was 10 µM; that for `O=C(/C=C/c1ccc(-c2ccncc2)cc1Cl)NO` was 0.61 µM.
Turning to `O=C(/C=C/c1ccc(-c2ccc(F)cc2F)cc1Cl)NO`, the concentration for half-maximal inhibition (IC50) was 0.98 µM.
The value for `O=C(/C=C/c1ccc(/C=C/c2ccccc2)cc1Cl)NO` was 68.4 µM.
Under `COc1cncc(-c2ccc(/C=C/C(=O)NO)c(Cl)c2)c1` stands 35.3 µM.
Under `O=C(/C=C/c1ccc(-c2ccc(C(F)(F)F)cc2)cc1Cl)NO` stands 35.7 µM; under `O=C(/C=C/c1ccc(-c2ccc3c(c2)OCO3)cc1Cl)NO`, 33.1 µM; under `O=C(/C=C/c1ccc(-c2cc(F)c(F)c(F)c2)cc1Cl)NO`, 0.64 µM.
`CN(C)c1ccc(-c2ccc(/C=C/C(=O)NO)c(Cl)c2)cn1`: 73.2 µM corresponded to half-maximal inhibition (IC50).
The value for `CC(C)COc1ccc(/C=C/C(=O)NO)c(Cl)c1` was 42.7 µM; that for `CNC(=O)c1ccc(-c2ccc(/C=C/C(=O)NO)c(Cl)c2)cn1` was 12.3 µM.
Under `COc1ccc(-c2ccc(/C=C/C(=O)NO)c(Cl)c2)cc1` stands 32.3 µM; under `Nc1ccccc1-c1ccc(/C=C/C(=O)NO)c(Cl)c1`, 0.55 µM; under `CS(=O)(=O)c1ccc(-c2ccc(/C=C/C(=O)NO)c(Cl)c2)cc1`, 15.4 µM.
Consider `COc1ncc(-c2ccc(/C=C/C(=O)NO)c(Cl)c2)cc1Cl`, for which the IC50 was above 100 µM.
Under `O=C(/C=C/c1ccc(-c2ccc(F)cc2)cc1Cl)NO` stands 9.49 µM; under `COc1cccc(-c2ccc(/C=C/C(=O)NO)c(Cl)c2)c1`, 24.9 µM.
Consider `COc1ccc(-c2ccc(/C=C/C(=O)NO)c(Cl)c2)c(OC)n1`, for which the IC50 came to 8.01 µM.
The value for `O=C(/C=C/c1ccc(-c2ccccc2)cc1Cl)NO` was 1.23 µM.
As to `Cn1cncc1-c1ccc(/C=C/C(=O)NO)c(Cl)c1`, the IC50 turned out to be 22.3 µM.
The value for `O=C(/C=C/c1ccc(-c2cncnc2)cc1Cl)NO` was 2.79 µM.
Under `COc1ncccc1-c1ccc(/C=C/C(=O)NO)c(Cl)c1` stands 0.66 µM; under `O=C(/C=C/c1ccccc1Cl)NO`, 13.4 µM; under `O=C(/C=C/c1ccc(-c2cccnc2)cc1Cl)NO`, 0.23 µM.
The value for `COc1cc(C)c(-c2ccc(/C=C/C(=O)NO)c(Cl)c2)cn1` was 0.75 µM.
The compound `Cc1noc(C)c1-c1ccc(/C=C/C(=O)NO)c(Cl)c1` returned an IC50 of 1.16 µM.
The value for `O=C(/C=C/c1ccc(N2CCOCC2)cc1Cl)NO` was 35 µM; that for `COc1ccc(-c2ccc(/C=C/C(=O)NO)c(Cl)c2)cn1` was 0.56 µM.
Under `COc1ncc(-c2ccc(/C=C/C(=O)NO)c(Cl)c2)cn1` stands 1.21 µM.
For the compound `O=C(/C=C/c1ccc(N2CCNCC2)cc1Cl)NO`, the IC50 is above 100 µM.
